Article PMC10869273

Target: SARS-CoV-2 Wuhan-Hu-1 Spike with six stabilizing proline substitutions (S-6P)
Experiment: BLI
Settings: apparent Kd of the bivalent IgG

## C143 IgG (wild-type) VL:T33N; VL:G53V
  Kd: 30 nM
